Measured values from several laboratories, pooled; numbers as filed in NIAID ChemDB.

All rows: whole-cell or culture tests; organism: HIV-1; read-out: EC50

a–b is a range or a potency band. ECn is the concentration giving n% inhibition of infection, replication or growth. Blank or dashed fields: not listed here. Conditions beyond the fields shown may differ between rows.

compound	mutations	setting	strain	cells	read by	value
Cc1cc(C#N)cc(C)c1Oc1nc(Nc2ccc(C#N)cc2)ncc1SCC(=O)NCc1ccc(O)cc1	E138K			MT-4	MTT	0.0273 µM
Cc1ncc(-c2ccc(OCC3CC3)cn2)c(N2CCC3(CCCC3)CC2)c1[C@H](OC(C)(C)C)C(=O)O			NL4-3	MT-2	luminescence	9.8 µM
Nc1ncnc2c1ncn2[C@@H]1O[C@H](COP(=O)(O)O[C@@H]2[C@H](O)[C@@H](COP(=O)(O)O[C@@H]3[C@H](O)[C@@H](CO)O[C@H]3n3cnc4c(N)ncnc43)O[C@H]2n2cnc3c(N)ncnc32)[C@@H](O)[C@H]1O				SupT1 + Sup-T1	RT activity	>300 µM
Cc1ccc2c(c1)C(c1ccccc1)N(C)S2(=O)=O					p24 / RT activity	31 µM
N#CC1=CC2Nc3ccccc3C2N(c2ccc([N+](=O)[O-])cc2)C1=O			6463-13	HeLa	GFP / fluorescence	0.89 µM
Cc1cc(C#N)cc(C)c1Oc1nc(Nc2ccc(C#N)cc2)ncc1SCC(=O)NCC1CCCO1	L100I			MT-4	MTT	0.0449 µM
Cc1ccc(S(=O)(=O)c2c(C(N)=O)[nH]c3ccc(Cl)cc23)cc1	RT-K103R V179D P225H		Efavirenz-resistant (RT K103R V179D P225H)	C8166	cytopathic effect / MTT	<93 µM
Cc1cc(C#N)cc(C)c1Oc1nc(Nc2ccc(C#N)cc2)ncc1SCC(=O)Nc1ccc(S(C)(=O)=O)cc1	L100I			MT-4	MTT	0.0965 µM
Cc1ccc(S(=O)(=O)c2c(C(N)=O)[nH]c3ccc(Cl)cc23)c(C)c1	RT-Y181C		N119 nevirapine-resistant (RT Y181C)	MT-4	cytopathic effect / MTT	0.15 µM
CCCn1cc(C(=O)OCc2ccccc2)c(=O)c2c(NC(C)=O)nc(SC)nc21		pseudotyped	NL4-3	HeLa	luciferase	>0.1 µM
C#CCNC(=O)CSc1cnc(Nc2ccc(C#N)cc2)nc1Oc1c(C)cc(C#N)cc1C	RES056			MT-4	MTT	0.2096 µM
Nc1ncnc2c1ncn2COCCOP(=O)(O)O				SupT1 + Sup-T1	RT activity	>300 µM
CCC(F)(F)COc1ccc(-c2cnc(C)c([C@H](OC(C)(C)C)C(=O)O)c2N2CCC3(CCCC3)CC2)nc1			NL4-3	MT-2	luminescence	9 µM
Cc1cc(C#N)cc(C)c1Oc1nc(Nc2ccc(C#N)cc2)ncc1SCC(=O)NC1CC1	L100I			MT-4	MTT	0.0121 µM
Nc1ncnc2c1ncn2COCCOP(=O)([O-])O[C@@H]1[C@H](O)[C@@H](COP(=O)([O-])O[C@@H]2[C@H](O)[C@@H](CO)O[C@H]2n2cnc3c(N)ncnc32)O[C@H]1n1cnc2c(N)ncnc21				SupT1 + Sup-T1	syncytia	<300 µM
CC(C)[C@@H](CO)n1cc(C(=O)O)c(=O)c2cc(Cc3cccc(Cl)c3F)c(N(C)C)nc21		pseudotyped	NL4-3	HeLa	luciferase	>0.1 µM
COCCNC(=O)CSc1cnc(Nc2ccc(C#N)cc2)nc1Oc1c(C)cc(C#N)cc1C	RES056			MT-4	MTT	0.351 µM
COP(=O)(c1cc(C)cc(CCC#N)c1)c1c(C(N)=O)[nH]c2ccc(Cl)cc12	K103N/Y181C		NL4-3	MT-4	p24 / ELISA	0.0065 µM
NC(=O)c1[nH]c2ccc(Cl)cc2c1S(=O)(=O)c1ccccc1			IIIB	C8166	p24	<0.007 µM
C=CCNC(=O)CSc1cnc(Nc2ccc(C#N)cc2)nc1Oc1c(C)cc(C#N)cc1C	K103N			MT-4	MTT	0.0025 µM
Cc1ncc(-c2ccc(OCCOC(C)(C)C)cn2)c(N2CCC3CCCCC3C2)c1[C@H](OC(C)(C)C)C(=O)O			NL4-3	MT-2	luminescence	4.9 µM
CN1C(c2ccc(N)cc2)c2ccccc2S1(=O)=O					p24 / RT activity	65 µM
CC(C)(C)[C@@H](CO)n1cc(C(=O)O)c(=O)c2cc(Cc3cccc(Cl)c3F)ncc21		pseudotyped	NL4-3	HeLa	luciferase	0.01–0.1 µM
Cc1ncc(-c2ccc(OCC(C)C)cn2)c(N2CCC3(CC2)OCCO3)c1[C@H](OC(C)(C)C)C(=O)O			NL4-3	MT-2	luminescence	23.4 µM
CCOC(=O)c1cn([C@H](CO)C(C)C)c2ccc(NCc3ccc(F)cc3)cc2c1=O		pseudotyped	NL4-3	HeLa	luciferase	>0.1 µM
Cc1ncc(-c2ccc(OCCc3ccc(F)cc3)cn2)c(N2CCC3(CCC3)CC2)c1[C@H](OC(C)(C)C)C(=O)O			NL4-3	MT-2	luminescence	0.8 µM
COc1nc2c(cc1N1CCc3ccc(F)cc3C1)c(=O)c(C(=O)O)cn2[C@H](CO)C(C)C		pseudotyped	NL4-3	HeLa	luciferase	>0.1 µM
Cc1ncc(-c2cnc(OCC(C)C)c(F)c2)c(N2CCC3(CCC3)CC2)c1[C@H](OC(C)(C)C)C(=O)O			NL4-3	MT-2	luminescence	123.2 µM
C[C@H](NC(=O)CCC(CCC(=O)N[C@@H](C)C(=O)O)(CCC(=O)N[C@@H](C)C(=O)O)NC(=O)CCOCC(COCCC(=O)NC(CCC(=O)N[C@@H](C)C(=O)O)(CCC(=O)N[C@@H](C)C(=O)O)CCC(=O)N[C@H](C)C(=O)O)(COCCC(=O)NC(CCC(=O)N[C@@H](C)C(=O)O)(CCC(=O)N[C@H](C)C(=O)O)CCC(=O)N[C@H](C)C(=O)O)COCCC(=O)NC(CCC(=O)N[C@@H](C)C(=O)O)(CCC(=O)N[C@H](C)C(=O)O)CCC(=O)N[C@H](C)C(=O)O)C(=O)O			NL4-3	MT-4	MTS	>100 µM
CC(=O)Nc1ccc(SSc2ccc(NC(C)=O)cc2C(N)=O)c(C(N)=O)c1			6R (AZT-resistant)	MT-4	cytopathic effect / XTT	1.6 µM
COc1nc2c(cc1CCc1ccc(F)cc1F)c(=O)c(C(=O)O)cn2[C@H](CO)C(C)(C)C		pseudotyped	NL4-3	HeLa	luciferase	>0.1 µM
Cc1cc(C#N)cc(C)c1Oc1nc(Nc2ccc(C#N)cc2)ncc1SCC(=O)NCCN1CCOCC1	Y181C			MT-4	MTT	0.0235 µM
Cc1ncc(-c2ccc(OCC(C)C)cn2)c(N2CC3CCCC3C2)c1[C@H](OC(C)(C)C)C(=O)O			NL4-3	MT-2	luminescence	36 µM
CCOC(=O)c1cn([C@H](CO)C(C)C)c2cc(OC)c(NCc3ccc(F)cc3)cc2c1=O		pseudotyped	NL4-3	HeLa	luciferase	<0.01 µM
CCC(C)C(NC(=O)c1ccccc1SSc1ccccc1C(=O)NC(C(=O)O)C(C)CC)C(=O)O			N119 (nevirapine-resistant)	CEM + CEM-SS	cytopathic effect / XTT	3.5 µM
CCN1C(c2ccccc2)c2cc(Cl)ccc2S1(=O)=O					p24 / RT activity	19.3 µM
CC(=O)c1c(C)nc(-c2ccccc2)nc1NC(=O)c1ccccc1			B-92US026	PBMC	GFP / fluorescence	1.9 µM
Cc1cc(C#N)cc(C)c1Oc1nc(Nc2ccc(C#N)cc2)ncc1SCC(=O)NC1CCN(C(=O)OC(C)(C)C)CC1	Y181C			MT-4	MTT	0.0517 µM
CN1C(c2ccccc2)c2cc(Cl)ccc2S1(=O)=O					p24 / RT activity	26.1 µM

5 of the rows above, restated:

compound,mutations,setting,strain,cells,read by,value
C#CCNC(=O)CSc1cnc(Nc2ccc(C#N)cc2)nc1Oc1c(C)cc(C#N)cc1C,RES056,,,MT-4,MTT,0.2096 µM
Cc1ncc(-c2cnc(OCC(C)C)c(F)c2)c(N2CCC3(CCC3)CC2)c1[C@H](OC(C)(C)C)C(=O)O,,,NL4-3,MT-2,luminescence,123.2 µM
CCC(F)(F)COc1ccc(-c2cnc(C)c([C@H](OC(C)(C)C)C(=O)O)c2N2CCC3(CCCC3)CC2)nc1,,,NL4-3,MT-2,luminescence,9 µM
CN1C(c2ccc(N)cc2)c2ccccc2S1(=O)=O,,,,,p24 / RT activity,65 µM
Cc1ccc(S(=O)(=O)c2c(C(N)=O)[nH]c3ccc(Cl)cc23)cc1,RT-K103R V179D P225H,,Efavirenz-resistant (RT K103R V179D P225H),C8166,cytopathic effect / MTT,<93 µM